Measured values from several laboratories, pooled; numbers as filed in NIAID ChemDB.

Shared fields: tests on isolated targets; organism: HIV-1; target: Reverse transcriptase; read-out: IC50

Blank or dashed fields: not listed here. Neighbouring rows are from separate reports. ICn: concentration for n% inhibition.

compound	strain or isolate	mutations	method	result
C/C=C/CSc1cc(NC(=S)c2ccsc2C)ccc1Cl		RT-P236L		8.5 µM
Oc1cc(O)c2c(c1)O[C@H](c1ccc(O)c(O)c1)[C@H](O)C2				>10 µM
CC(C)=CCOc1cc(NC(=S)c2ccoc2C)ccc1Cl	IIIB		RT activity	0.023 µM
O=C(O[C@@H]1Cc2c(O)cc(O)cc2O[C@@H]1c1ccc(O)c(O)c1)c1cc(O)c(O)c(O)c1				>10 µM
O=C(CSc1nnnn1-c1cccc2ccccc12)Nc1ccccc1F			nucleotide incorporation / radiometric	<2 µM
CCN1c2ncc(C=O)cc2C(=O)N(C)c2ccc(Cl)nc21		RT-Y181C	nucleotide incorporation / radiometric	<1 µM
Cc1cccc(Cc2cc(=O)[nH]c(OC3CCCC3)n2)c1	IIIB		nucleotide incorporation	3.1 µM
Cc1cc(C)c(-n2nnnc2SCC(=O)Nc2ccc(C(N)=O)cc2Cl)c(C)c1		RT-K103N		0.006 µM
CO[C@H]1/C=C/O[C@@]2(C)Oc3c(C)c(O)c4c(c3C2=O)C(=O)C(SCCOC(=O)CCC(=O)OC[C@H]2O[C@@H](n3cc(C)c(=O)[nH]c3=O)C[C@@H]2N=[N+]=[N-])=C(NC(=O)/C(C)=C\C=C\[C@H](C)[C@@H]2OC(C)(C)O[C@@H]([C@@H](C)[C@H](OC(C)=O)[C@@H]1C)[C@@H]2C)C4=O	IIIB		RT activity	~300 µM
CN(c1ncccc1CO)C1CCN(C(=O)c2cc3cc(NS(C)(=O)=O)ccc3[nH]2)CC1	IIIB	RT-P236L	nucleotide incorporation	>50 µM
CCN1c2ncccc2C(=O)N(C)c2ccc(-c3cccc(N)c3)nc21			nucleotide incorporation	0.1 µM
CC(=O)Oc1ccc(/C=C/C(=O)Oc2c(-c3ccc(Cl)c(Cl)c3)oc3ccccc3c2=O)cc1OC(C)=O				>100 µM
Cc1cc(C)c(-n2nnnc2SCC(=O)Nc2ccccc2Cl)c(C)c1		RT-K103N		0.015 µM
Cc1cc(S(N)(=O)=O)ccc1NC(=O)COc1ccc(Cl)cc1C(=O)c1cc(Cl)cc(C#N)c1		RT-V106A Y181C	fluorescence	0.0035 µM
CCC(C)Oc1nc(Cc2cc(C)cc(C)c2)cc(=O)[nH]1	IIIB		nucleotide incorporation	3.4 µM
N#Cc1cc(Cl)cc(Oc2c(Br)ccc(Cn3[nH]c(=O)[nH]c3=O)c2F)c1	K103N/Y181C	NNRTI-resistant (RT K103N/Y181C)	scintillation proximity / radiometric	0.005 µM
CCC1(c2ccc(CCc3ccccc3)cc2)Oc2ccccc2-n2cccc2C1=O		RT-V106A	nucleotide incorporation / radiometric	>10 µM
Cc1cc(C)c(-n2nnnc2SCC(=O)Nc2ccccc2C(F)(F)F)c(C)c1			nucleotide incorporation / radiometric	<2 µM
CO[C@H]1/C=C/O[C@@]2(C)Oc3c(C)c(O)c4c(c3C2=O)C(=O)C(SCCOC(=O)CCCC(=O)OC[C@@H]2O[C@H](n3cc(C)c(=O)[nH]c3=O)C[C@H]2N=[N+]=[N-])=C(NC(=O)/C(C)=C\C=C\[C@H](C)[C@@H]2OC(C)(C)O[C@@H]([C@@H](C)[C@H](OC(C)=O)[C@@H]1C)[C@@H]2C)C4=O	IIIB		RT activity	~300 µM
CCN1c2ncc(COc3ccc4[nH]ccc4c3)cc2C(=O)N(C)c2ccc(Cl)nc21	WT		nucleotide incorporation / radiometric	<1 µM
CCOc1cccc(C2(CC)Oc3ccccc3-n3cccc3C2=O)c1		RT-Y181I	nucleotide incorporation / radiometric	2.1 µM
Cc1cc(C)c(-n2nnnc2S(=O)CC(=O)Nc2ccccc2[N+](=O)[O-])c(C)c1			nucleotide incorporation / radiometric	<2 µM
Cc1cn([C@@H]2O[C@H](CO[Si](C)(C)C(C)(C)C)C3(OS(=O)(=O)C=C3N)[C@H]2O[Si](C)(C)C(C)(C)C)c(=O)n(C)c1=O	IIIB	RT-V106A	RT activity	>828 µM
CCN1c2ncc(COc3cc[n+]([O-])cc3)cc2C(=O)N(C)c2ccc(Cl)nc21		RT-Y181C	nucleotide incorporation / radiometric	>1 µM
COc1cc(/C=C/C(=O)Oc2c(-c3ccc(Cl)cc3)oc3ccccc3c2=O)ccc1O				>100 µM
Nc1ncnc2c1ncn2OCCOCP(=O)(O)OP(=O)(O)OP(=O)(O)O				0.66 µM
Cc1cc(C)c(-n2nnnc2SCC(=O)Nc2ccc(S(=O)(=O)Nc3nc(C)c(C)o3)cc2)c(C)c1			nucleotide incorporation / radiometric	<2 µM
Cc1cn(Cc2ccc(Br)c(Oc3cc(Cl)cc(C#N)c3)c2F)c(=O)[nH]c1=O		Wild type	scintillation proximity / radiometric	0.003 µM
Cc1cc(C)c(-n2nnnc2SCC(=O)Nc2ccc(F)cc2Cl)c(C)c1			nucleotide incorporation / radiometric	<2 µM
NS(=O)(=O)c1ccc(NC(=O)CSc2nnnn2-c2cc(Cl)ccc2Cl)c(Cl)c1		RT-K103N		0.003 µM
N#Cc1cc(Cl)cc(Oc2c(Br)ccc(Cn3ccc(=O)[nH]c3=O)c2F)c1		Wild type	scintillation proximity / radiometric	0.004 µM
CCC1(c2ccc(COc3ccccc3)cc2)Oc2ccccc2-n2cccc2C1=O		RT-L100I	nucleotide incorporation / radiometric	0.2 µM
O=C(Oc1c(-c2ccc(Cl)c(Cl)c2)oc2ccccc2c1=O)c1cc(O)c(O)c(O)c1				>100 µM
CCN1c2ncc(COc3cccc(N)c3)cc2C(=O)N(C)c2ccc(Cl)nc21	WT		nucleotide incorporation / radiometric	<1 µM
Nc1ncnc2c1ncn2[C@H]1CC[C@@H](COP(=O)(O)OP(=O)(O)OP(=O)(O)O)O1		RT-L74V	ELISA	16.9 µM
CCC1(c2cccc(N)c2)Oc2ccccc2-n2cccc2C1=O		RT-K103N	nucleotide incorporation / radiometric	2 µM
Cc1cc(C)c(-n2nnnc2SCC(=O)Nc2ccccc2Br)c(C)c1		RT-K103N		0.035 µM
CC(=O)c1ccc(C)cc1NC(C(N)=O)c1c(Cl)cccc1Cl	IIIB	RT-V106A	RT activity	12 µM
COc1cc([N+](=O)[O-])ccc1NC(=O)CSc1nnnn1-c1c(C)cc(C)cc1C			nucleotide incorporation / radiometric	<2 µM
CCN1c2ncccc2C(=O)N(C)c2ccc(-c3cccc(O)c3)nc21			nucleotide incorporation	0.07 µM
Nc1nc2c(ncn2[C@H]2CC[C@@H](COP(=O)(O)OP(=O)(O)OP(=O)(O)O)O2)c(=O)[nH]1	IIIB		RT activity	0.13 µM
Cc1cc(C)c(-n2nnnc2SCC(=O)Nc2cccc(F)c2F)c(C)c1			nucleotide incorporation / radiometric	<2 µM
Cc1ccc(Cl)cc1-n1nnnc1SCC(=O)Nc1ccccc1[N+](=O)[O-]		RT-K103N		0.023 µM
CC(=O)Oc1c(-c2ccc(Cl)cc2)oc2ccccc2c1=O				>100 µM
Nc1ccn([C@H]2CC[C@@H](COP(=O)(O)OP(=O)(O)OP(=O)(O)O)O2)c(=O)n1		RT-T215Y K219Q	ELISA	4.3 µM
CCN1c2ncc(COc3ccnc(C)c3)cc2C(=O)N(C)c2ccc(Cl)nc21		RT-Y181C	nucleotide incorporation / radiometric	<1 µM
CC[C@@]1(c2ccccc2)Oc2cccnc2-n2cccc2C1=O			nucleotide incorporation / radiometric	>2 µM
COc1ccc2c(c1)N(C(=O)OC(C)C)[C@@H](CSC)C(=S)N2		RT-M230L	scintillation proximity / radiometric	1 µM
CN1C(=O)NC(=O)C1Cc1ccc(Br)c(Oc2cc(Cl)cc(C#N)c2)c1F		Wild type	scintillation proximity / radiometric	0.006 µM
Cc1occc1C(=S)Nc1ccc(Cl)c(/C=N/OC(C)(C)C)c1		RT-M184V		5.6 µM
N#Cc1cc(Cl)cc(Oc2c(Br)ccc(Cn3cc(Cl)c(=O)[nH]c3=O)c2F)c1		Wild type	scintillation proximity / radiometric	0.004 µM
CCN1c2ncc(COc3cccc(C(N)=O)c3)cc2C(=O)N(C)c2ccc(Cl)nc21		RT-Y181C	nucleotide incorporation / radiometric	<1 µM
COc1ncccc1NC(=O)CSc1nnnn1-c1c(C)cc(C)cc1C			nucleotide incorporation / radiometric	<2 µM
N#Cc1cc(Cl)cc(Oc2c(Br)ccc(Cn3cn[nH]c3=O)c2F)c1	K103N/Y181C	NNRTI-resistant (RT K103N/Y181C)	scintillation proximity / radiometric	0.013 µM
CC(=O)Oc1ccc(/C=C/C(=O)Oc2c(-c3ccc(Cl)cc3)oc3ccccc3c2=O)cc1OC(C)=O				>100 µM
CCC(C)Oc1nc(Cc2cccc(C)c2)c(C)c(=O)[nH]1	IIIB		nucleotide incorporation	2.1 µM
CO[C@H]1/C=C/O[C@@]2(C)Oc3c(C)c(O)c4c(c3C2=O)C(=O)C(SCCOC(=O)CCC(=O)OC[C@H]2O[C@@H](n3cc(C)c(=O)[nH]c3=O)CC2O)=C(NC(=O)/C(C)=C\C=C\[C@H](C)[C@H](O)[C@@H](C)[C@@H](O)[C@@H](C)[C@H](OC(C)=O)[C@@H]1C)C4=O	IIIB		RT activity	~300 µM
COc1cc(C(=O)Oc2c(-c3ccc(Cl)c(Cl)c3)oc3ccccc3c2=O)ccc1OC(C)=O				>100 µM
Cc1cccc(Cc2cc(=O)[nH]c(OC3CCCCC3)n2)c1	IIIB		nucleotide incorporation	1.8 µM
CCN1c2ncc(Cc3ccccc3)cc2C(=O)N(C)c2cccnc21	WT		nucleotide incorporation / radiometric	<1 µM
N#Cc1cc(Cl)cc(Oc2c(Br)ccc(CN3CC(=O)NC3=O)c2F)c1		Wild type	scintillation proximity / radiometric	0.009 µM

Again, the opening 3 rows:

compound,strain or isolate,mutations,method,result
C/C=C/CSc1cc(NC(=S)c2ccsc2C)ccc1Cl,,RT-P236L,,8.5 µM
Oc1cc(O)c2c(c1)O[C@H](c1ccc(O)c(O)c1)[C@H](O)C2,,,,>10 µM
CC(C)=CCOc1cc(NC(=S)c2ccoc2C)ccc1Cl,IIIB,,RT activity,0.023 µM